Data on 22 compounds can be found in PubChem BioAssay AID651644 (National Center for Advancing Translational Sciences (NCATS), 2012).

The entries are a selection whose mix differs from that of the whole data set. Some structures show a salt or complex split into parts, the way the source records it. Calls of active or inactive are those of the source. Calls come from the whole dose curve; as a rule, active = well fitted falling curve with a large enough effect; inconclusive = small, poorly fitted or top-dose-only effect; inactive = no such curve, though single readings can be large or run the other way.
% is set by controls: 0 for no effect and ±100 for the full control effect.

A short description of this assay: qHTS Assay for Inhibitors of the HIV-1 protein Vpr. Note: nearly all actives have a fitted effect of over 50% in size. To be noted: S. pombe RE007 Vpr strain, BacTiter-Glo ATP luminescence, 24 h; at 92.2 µM (top of the series).
`O=C(NCC1(N2CCCCC2)CCCCC1)c1ccc(OC(F)F)cc1`: the activity change, negative = less growth was inactive: 25.7%.
In the case of `O=C(NCC1(N2CCCCC2)CCCCC1)c1cccc([N+](=O)[O-])c1`, the activity change, negative = less growth is inactive: -4.08%.
Under `CSc1ccc(C(=O)NCC2(N3CCOCC3)CCCCC2)cc1` stands inactive: -1.25%.
For `CCN1CCC(Nc2ccc(Cl)cc2)CC1`, the activity change, negative = less growth is inactive: 12%.
Under `N#CC1(Nc2ccccc2)CCN(CCc2ccccc2)CC1` stands inactive: -7.38%; under `O=c1[nH]c2ccccc2n1C1CCN(C(c2ccccc2OC(F)(F)F)c2nnnn2C2CCCC2)CC1` (configuration not stated), inactive: 4.04%.
The figure for `O=C(NCC1(N2CCCCC2)CCCCC1)c1cncc(Br)c1` is inactive: -2.33%; for `COc1ccc2c(c1O)-c1c(O)c(OC)cc3c1[C@H](C2)[N+](C)(C)CC3.O=[N+]([O-])c1cc([N+](=O)[O-])c([O-])c([N+](=O)[O-])c1[O-]` it is inactive: -22.4%.
Under `CN1CCC(Nc2cccc(F)c2)CC1` stands inactive: 15%.
As to `O=C(OC1CN2CCC1CC2)c1ccc([N+](=O)[O-])cc1` (configuration not stated), the activity change, negative = less growth is inactive: 9.86%.
The figure for `Cc1ccc(C(=O)NCC2(N(C)C)CCCCC2)o1` is inactive: -14.4%; for `CCCOc1ccc(C(=O)NCC2(N(C)C)CCCCC2)cc1OC` it is inactive: -1.98%.
Under `COc1ccc(C(c2nnnn2C2CCCC2)N2CCC(n3c(=O)[nH]c4ccccc43)CC2)cc1` (configuration not stated) stands inactive: -2.86%.
The figure for `COc1ccc(CN(CCCl)CCCl)cc1Cl` is inactive: 4.1%.
Turning to `O=[N+]([O-])c1cc([N+](=O)[O-])c(OC2CCCCC2O)c([N+](=O)[O-])c1` (configuration not stated), the activity change, negative = less growth was inactive: -2.07%.
The figure for `CN(C)c1cccc(C(=O)NCC2(N3CCCCC3)CCCCC2)c1` is inactive: -8.21%; for `CCCCn1nnnc1C(c1ccccc1OC(F)(F)F)N1CCC(n2c(=O)[nH]c3ccccc32)CC1` (configuration not stated) it is inactive: -9.63%; for `CC(C)c1ccc(NC2CCN(C(=O)OC(C)(C)C)CC2)cc1` it is inactive: 6.77%.
The figure for `CCCCn1nnnc1C(c1ccnc2ccccc12)N1CCC(n2c(=O)[nH]c3ccccc32)CC1` (configuration not stated) is inactive: -1.24%.
Under `COc1cc(OC)c(C(=O)NCC2(N(C)C)CCCCC2)cc1OC` stands inactive: -6.46%.
Consider `O=C(NCC1(N2CCOCC2)CCCCC1)c1cc(F)c(F)cc1Cl`, for which the activity change, negative = less growth was inactive: -10.2%.
Under `CCC(c1nnnn1C(C)(C)C)N1CCC(n2c(=O)[nH]c3ccccc32)CC1` (configuration not stated) stands inactive: 9.89%.
